Anti-infective test results gathered from many reports (values: NIAID ChemDB through PubChem).

All rows: target-level tests

Conditions beyond the fields shown may differ between rows.

CC(C)(CCCNC(=O)c1cc(F)cc(F)c1)CN(C[C@@H](O)[C@H](Cc1ccccc1)NC(=O)O[C@H]1CO[C@H]2OCC[C@H]21)S(=O)(=O)c1ccc2c(c1)OCO2 ; agent: HIV-1 ; read by: fluorescence ; target: Protease ; measure: Ki ; value: <0.001 µM
CC(C)(C)COC(=O)c1cn2ccn(Cc3cccc(Cl)c3)c(=O)c2c(O)c1=O ; agent: HIV-1 ; read by: ELISA ; target: Integrase ; measure: IC50 ; value: 0.01–0.1 µM
COc1ccc(OCCCN)c(CN2CCN(C(=N)N)CC2)c1 ; agent: HIV-1 ; read by: FRET ; target: Tat:TAR/LTR ; measure: Ki ; value: 350 µM
O=C(NCc1ccccc1)c1ccccc1O ; agent: HIV ; read by: strand transfer ; target: Integrase ; measure: IC50 ; value: <0.5 µM
CCOC(=O)NCCCCCC(C)(C)CN(C[C@@H](O)[C@H](Cc1ccccc1)NC(=O)O[C@H]1CO[C@H]2OCC[C@H]21)S(=O)(=O)c1ccc2c(c1)OCO2 ; agent: HIV-1 ; read by: fluorescence ; target: Protease ; measure: Ki ; value: <0.001 µM
NC(N)=NCCCCNCc1cc(-c2cccs2)ccc1OCCN=C(N)N ; agent: HIV-1 ; read by: FRET ; target: Tat:TAR/LTR ; measure: Ki ; value: 0.86 µM
CSC[C@H](NC(=O)COc1cccc2ccccc12)C(=O)N[C@@H](Cc1ccccc1)[C@H](O)C(=O)N1CSC(C)(C)[C@H]1C(=O)NC(C)(C)C ; agent: HIV-1 ; target: Protease ; dose: 0.05 µM ; measure: inhibition ; value: 99.3%
CC(C)(CCCCCNC(=O)OC1COCOC1)CN(C[C@@H](O)[C@H](Cc1ccccc1)NC(=O)O[C@H]1CO[C@H]2OCC[C@H]21)S(=O)(=O)c1ccc2c(c1)OCO2 ; agent: HIV-1 ; read by: fluorescence ; target: Protease ; measure: Ki ; value: <0.001 µM
COC(=O)c1ccc(C(=O)NCc2cccnc2)c(O)c1O ; agent: HIV ; read by: strand transfer ; target: Integrase ; measure: IC50 ; value: <0.5 µM
CC(C)C(CO)NC(=O)[C@@H]1CSCN1C(=O)[C@@H](O)[C@H](Cc1ccccc1)NC(=O)[C@H](CS(C)(=O)=O)NC(=O)COc1cccc2ccccc12 ; agent: HIV-1 ; target: Protease ; measure: IC50 ; value: <0.05 µM
COC(=O)c1ccc(C(=O)NCc2ccc(C(F)(F)F)cc2)c(O)c1O ; agent: HIV ; read by: strand transfer ; target: Integrase ; measure: IC50 ; value: <2 µM
CC(C)(CCCN=C(N)NC#N)CN(C[C@@H](O)[C@H](Cc1ccccc1)NC(=O)O[C@H]1CO[C@H]2OCC[C@H]21)S(=O)(=O)c1ccc2c(c1)OCO2 ; agent: HIV-1 ; read by: fluorescence ; target: Protease ; measure: Ki ; value: <0.001 µM
NC(=O)C[C@H](NC(=O)[C@@H](N)Cc1ccccc1)C(=O)N[C@@H](Cc1ccccc1)[C@H](O)C(=O)NCC1CCCCC1 ; agent: HIV-1 ; target: Protease ; dose: 1000 µM ; measure: inhibition ; value: 83.6%
CC(C)[C@H](NC(=O)[C@H](Cc1ccccc1)C[C@H](O)[C@H](Cc1ccccc1)NC(=O)OC(C)(C)C)C(=O)N[C@@H](Cc1ccccc1)C(=O)N1CCOCC1 ; agent: HIV-2 ; target: Protease ; measure: Ki ; value: 0.00056 µM
O=C1c2c(O)c(=O)c(-c3nccs3)cn2CCN1Cc1ccc(Cl)cc1OCc1ccccc1 ; agent: HIV-1 ; read by: ELISA ; target: Integrase ; measure: IC50 ; value: 0.01–0.1 µM
CC(C)(C)OC(=O)N[C@@H](Cc1ccccc1)C(=O)N[C@@H](CC(N)=O)C(=O)N[C@@H](Cc1ccccc1)[C@H](O)C(=O)NCC1CCCCC1 ; agent: HIV-1 ; target: Protease ; measure: IC50 ; value: <1000 µM
CCCS(=O)(=O)NCCCCC(C)(C)CN(C[C@@H](O)[C@H](Cc1ccccc1)NC(=O)O[C@H]1CO[C@H]2OCC[C@H]21)S(=O)(=O)c1ccc2c(c1)OCO2 ; agent: HIV-1 ; read by: fluorescence ; target: Protease ; measure: Ki ; value: <0.001 µM
CN[C@@H]1[C@H](O)[C@H](NC)[C@H]2O[C@@]3(O)C(=O)C[C@@H](C)O[C@H]3O[C@@H]2[C@H]1O ; agent: HIV-1 ; read by: gel ; target: Rev:RRE ; dose: 100 µM ; measure: inhibition ; value: 0%
CCOC(=O)NCCCCC(C)(C)CN(C[C@@H](O)[C@H](Cc1ccccc1)NC(=O)O[C@@H]1CO[C@@H]2OCC[C@@H]21)S(=O)(=O)c1ccc(N)cc1 ; agent: HIV-1 ; read by: fluorescence ; target: Protease ; measure: Ki ; value: <0.001 µM
CC[C@H](C)[C@H](NC(=O)[C@@H]1CCCN1C(=O)[C@H](O)[C@H](CC1CCCCC1)NC(=O)[C@H](CC(N)=O)NC(=O)CCc1ccccc1)C(=O)N[C@H](C(N)=O)C(C)C ; agent: HIV-1 ; target: Protease ; measure: IC50 ; value: >5 µM
COc1ccnc2[nH]cc(C(=O)C(=O)N3CCN(C(=O)c4ccccc4)C[C@H]3C)c12 ; agent: HIV-1 ; read by: ELISA ; target: gp120 ; strain: NL4-3 ; changes: GP120-R350K ; measure: fold resistance ; value: 1
N#CC1C=Cc2ccccc2N1C(=O)c1ccc(Cl)cc1 ; agent: HIV-2 ; read by: nucleotide incorporation ; target: Reverse transcriptase ; dose: 100 µM ; measure: inhibition ; value: 0%
CC(C)OC(=O)NCCCCC(C)(C)CN(C[C@@H](O)[C@H](Cc1ccccc1)NC(=O)O[C@H]1CO[C@H]2OCC[C@H]21)S(=O)(=O)c1cccc(N)c1 ; agent: HIV-1 ; read by: fluorescence ; target: Protease ; measure: Ki ; value: <0.001 µM
CCCCCCCCC[C@H]1O[C@@H]1C(=O)O ; agent: HIV-2 ; read by: HPLC ; target: Protease ; measure: IC50 ; value: <500 µg/mL
COc1ccc(S(=O)(=O)N(C[C@@H](O)[C@H](Cc2ccccc2)NC(=O)CC(C)CS(C)(=O)=O)CC(C)(C)CCC#N)cc1 ; agent: HIV-1 ; read by: fluorescence ; target: Protease ; measure: Ki ; value: <0.001 µM
NC[C@H]1O[C@H](O[C@H]2[C@H](O[C@@H]3O[C@H](CO)[C@@H](O)[C@H]3O)[C@@H](O)[C@H](N)C[C@@H]2N)[C@H](N)[C@@H](O)[C@@H]1O ; agent: HIV-1 ; read by: gel ; target: Rev:RRE ; measure: IC50 ; value: <100 µM
CS(=O)(=O)C[C@H](NC(=O)COc1cccc2ccccc12)C(=O)N[C@@H](Cc1ccccc1)[C@H](O)C(=O)N1CCC[C@H]1C(=O)Nc1ccc(O)cc1 ; agent: HIV-1 ; target: Protease ; dose: 5 µM ; measure: inhibition ; value: >90%
CN(C)C(=O)NCCC(C)(C)CN(C[C@@H](O)[C@H](Cc1ccccc1)NC(=O)O[C@H]1CO[C@H]2OCC[C@H]21)S(=O)(=O)c1cccc(N)c1 ; agent: HIV-1 ; read by: fluorescence ; target: Protease ; measure: Ki ; value: <0.001 µM

The first 2 rows once more:

smiles | agent | read by | target | strain | dose | changes | measure | value
CC(C)(CCCNC(=O)c1cc(F)cc(F)c1)CN(C[C@@H](O)[C@H](Cc1ccccc1)NC(=O)O[C@H]1CO[C@H]2OCC[C@H]21)S(=O)(=O)c1ccc2c(c1)OCO2 | HIV-1 | fluorescence | Protease |  |  |  | Ki | <0.001 µM
CC(C)(C)COC(=O)c1cn2ccn(Cc3cccc(Cl)c3)c(=O)c2c(O)c1=O | HIV-1 | ELISA | Integrase |  |  |  | IC50 | 0.01–0.1 µM

Fold resistance has wild type as its base. a–b is a range or a potency band. Percent inhibition refers to the dose given; in toxicity tests it is the harm to the cells. ICn: concentration for n% inhibition. Blank or dashed fields: not listed here.